Compound potency records, mixed from different reports. Data source: NIAID ChemDB in PubChem.

Shared fields: growth or infection tests; species: Mycobacterium tuberculosis

MIC bound: limit read from a one-dose screen. A number after MIC or MFC names an inhibition level or a share of isolates. An empty or dashed field is not shown. Lines come from different laboratories, so protocols vary. ECn: concentration that inhibits the pathogen or its effect by n%. Inhibition is in % at the dose shown (toxicity tests: loss of growth or viability).

structure	changes	read-out	cells	method	strain or isolate	tested at	result
O=S(=O)([O-])C1CC2C(c3ccccc31)N1ON2O1.[Na+]		MIC		BACTEC	H37Rv		≥12.5 µg/mL
CO[C@H]1/C=C/O[C@@]2(C)Oc3c(C)c(O)c4c(O)c(c5c(c4c3C2=O)NC2(CCN(CC(C)C)CC2)N=5)=NC(=O)/C(C)=C\C=C\[C@H](C)[C@H](O)[C@@H](C)[C@@H](O)[C@@H](C)[C@H](OC(C)=O)[C@@H]1C		MIC			Strain 77 (H526Q L533P)		0.25 µg/mL
COc1c2ccoc2c(OC)c2oc(=O)ccc12		inhibition		BACTEC	H37Rv	12.5 µg/mL	32%
O=C(NCCCN1c2ccccc2Sc2ccccc21)N1C(=O)/C(=C\c2ccc([N+](=O)[O-])cc2)SC1c1ccc([N+](=O)[O-])cc1		inhibition		agar	H37Rv	25 µg/mL	32%
CN(C)CCN(/N=C/c1ccc([N+](=O)[O-])o1)C(N)=O		MIC		BACTEC	H37Rv		≥12.5 µg/mL
CO[C@H]1/C=C/O[C@@]2(C)Oc3c(C)c(O)c4c(=O)c(c5oc6cc(N7CCN(C(C)C)CC7)cc(=O)c6nc5c4c3=C2O)NC(=O)/C(C)=C\C=C\[C@H](C)[C@H](O)[C@@H](C)[C@@H](O)[C@@H](C)[C@H](OC(C)=O)[C@@H]1C		MIC90			20 strains		0.07 µg/mL
C/C(=N/Nc1ccc([N+](=O)[O-])cc1[N+](=O)[O-])c1ccc2ccccc2n1		MIC bound		resazurin	H37Rv		>6.25 µg/mL
O=C(NCN1CCOCC1)c1cnccn1		MIC			ATCC 35822		33 µg/mL
O=C1CSC(c2ccc(Cl)cc2)N1C(=O)NCCCN1c2ccccc2Sc2ccccc21		inhibition		agar		25 µg/mL	25%
Cc1ccc(-c2noc(C3=CC4(CCN(CC5CCCO5)CC4)c4ccccc43)n2)cn1	Spiroindene-resistant	MIC		turbidity	TB376		15.5 µM
Nc1cc(O)c(C(=O)O)cc1F		MIC90		resazurin	Erdman		12.5 µg/mL
C1=C(c2nc(-c3cccnc3)no2)c2ccccc2C12CCN(CC1CCCO1)CC2	Spiroindene-resistant	MIC		turbidity	TB376		>31 µM
O=C(O)c1cn(C2CC2)c2cc(N3CCNCC3)c(F)cc2c1=O		MIC90		fluorescence	H37Rv		0.34 µM
O=C1NC(=O)/C(=C/c2ccc(C(F)(F)F)cc2)N1		inhibition			H37Rv	6.25 µg/mL	78%
O=C(NN(C(=O)c1ccccc1)c1cccs1)c1ccccc1		MIC		BACTEC	H37Rv		≥12.5 µg/mL
O=C1NC(=O)/C(=C/c2cccc(OCc3ccc(Cl)cc3)c2)N1		inhibition			H37Rv	6.25 µg/mL	93%
Cc1cccc(C2SCC(=O)N2C(=O)NCCCN2c3ccccc3Sc3ccccc32)c1		inhibition		agar	H37Rv	25 µg/mL	28%
O=C(Nc1cc2c(oc1=O)CCCCC2)c1cnccn1		inhibition		BACTEC	H37Rv	6.25 µg/mL	23%
CN(c1ccc(OC(F)(F)F)cc1)N1CCN(c2cc3c(cc2F)c(=O)c(C(=O)O)cn3C2CC2)CC1		MIC90		fluorescence	H37Rv		>50 µM
CN(C)C(=S)S(=O)(=O)c1ccc(Cl)cc1		MIC bound		BACTEC	H37Rv		≤128 µg/mL
CCC(C)N1CCN(c2cc(=O)c3nc4c(oc3c2)c2c(=O)c3c(O)c(C)c5c(c34)=C(O)[C@@](C)(O/C=C/[C@H](OC)[C@@H](C)[C@@H](OC(C)=O)[C@H](C)[C@H](O)[C@H](C)[C@@H](O)[C@@H](C)/C=C/C=C(/C)C(=O)N2)O5)CC1		MIC90			20 strains		0.07 µg/mL
Cc1cc2c(cc1C)[n+](=O)c(C(=O)N1CCN(c3ccc(Cl)cc3)CC1)c(C)n2[O-]		MIC			H37Rv		>6.25 µg/mL
COc1ccc(-c2noc(C3=CC4(CCN(CC5CCCO5)CC4)c4ccccc43)n2)cc1	Ethambutol-resistant	MIC		resazurin	17003		0.39 µM
O=C(/N=C/c1cccc(Br)c1)NCCCN1c2ccccc2Sc2ccccc21		inhibition		agar	H37Rv	25 µg/mL	27%
O=C(O)c1cn(C2CC2)c2cc(N3CCN(/N=C/c4ccc(Cl)cc4)CC3)c(F)cc2c1=O		MIC90		fluorescence	H37Rv		1.77 µM
CCCCCCCC/C=C/CCCCCC1CCCC(C)N1		inhibition		BACTEC	H37Rv	12.5 µg/mL	100%
Cc1c(C(=O)NC(C)(C)C)[n+](=O)c2cc(Cl)c(Cl)cc2n1[O-]		MIC	VERO		H37Rv		1.56 µg/mL
CN1c2ccccc2S(=O)(=O)n2c(COc3ccc(Cl)cc3)nnc21		inhibition		resazurin	H37Rv	6.25 µg/mL	-7%
CC(C)c1ccc(/C=C2/NC(=S)NC2=O)cc1		EC50			H37Rv		<6.25 µg/mL
Cc1nn(C(=S)S)c(C)c1N=Nc1ccc(F)cc1		MIC		BACTEC	H37Rv		≥12.5 µg/mL
O=C(NN1CCN(c2cc3c(cc2F)c(=O)c(C(=O)O)cn3C2CC2)CC1)c1ccc(B(O)O)cc1		MIC90		fluorescence	H37Rv		5.58 µM
C=C1C(=O)O[C@H]2/C=C(/C)[C@H](O)/C=C\[C@@](C)(O)C[C@H](OC(=O)/C(C)=C\C)[C@H]12		MIC		BACTEC	H37Rv		≥12.5 µg/mL
COc1ccccc1N1CCN(C(=O)c2c(C)n([O-])c3cc(Cl)c(Cl)cc3[n+]2=O)CC1		inhibition			H37Rv	6.25 µg/mL	0%
COc1cc2c(cc1C)n([O-])c(C)c(C(=O)C/C(=N\NC(=O)C[N+](C)(C)C)C(=O)Nc1cccc(Cl)c1C)[n+]2=O.[Cl-]		MIC		BACTEC	H37Rv		≥12.5 µg/mL
COc1ccc(/C=N/N2CCN(c3cc4c(cc3F)c(=O)c(C(=O)O)cn4C3CC3)CC2)cc1		MIC90		fluorescence	H37Rv		6.74 µM
C=CCOc1ccc(/C=C2/NC(=S)NC2=O)cc1		inhibition			H37Rv	6.25 µg/mL	93%
Cc1c(C(=O)NC(C)(C)C)[n+](=O)c2ccccc2n1[O-]		MIC			H37Rv		>6.25 µg/mL
CC1COc2c(N3CCN(C)CC3)c(F)cc3c(=O)c(C(=O)O)cn1c23	Isoniazid-resistant	MIC		resazurin	912253		0.14 µM
CC(=O)Nc1ccc(/C=N/NC(N)=S)cc1I		MIC					<6.25 µg/mL
O=C(NCN1CCNCC1)c1cnccn1		MIC			ATCC 27294		100 µg/mL
CO[C@H]1/C=C/O[C@@]2(C)Oc3c(C)c(O)c4c(O)c(c5c(c4c3C2=O)NC2(CCN(CC(C)C)CC2)N=5)=NC(=O)/C(C)=C\C=C\[C@H](C)[C@H](O)[C@@H](C)[C@@H](O)[C@@H](C)[C@H](OC(C)=O)[C@@H]1C		MIC			H37Rv		0.035 µg/mL
CCCCCCN1C(=O)c2ccnnc2Oc2cc(C)ccc21		EC50		BACTEC	H37Rv		>12.5 µg/mL
O=C(O)c1cn(C2CC2)c2cc(N3CCN(Nc4ccc(OC(F)(F)F)cc4)CC3)c(F)cc2c1=O		MIC90		fluorescence	H37Rv		7.35 µM
CN(CNC(=O)c1cnccn1)Cc1ccccc1		MIC			ATCC 35828		100 µg/mL
CN[C@@H]1[C@H](O[C@H]2[C@H](O[C@H]3[C@H](O)[C@@H](O)[C@H](N=C(N)N)[C@@H](O)[C@@H]3N=C(N)N)O[C@@H](C)[C@]2(O)C=O)O[C@@H](CO)[C@H](O)[C@H]1O	Spiroindene-resistant	MIC		turbidity	H37Rv		1 µM
Cc1c(C(=O)Nc2ccccc2)[n+](=O)c2cc(Cl)c(Cl)cc2n1[O-]		MIC	VERO		H37Rv		<0.78 µg/mL
CCCCN(C)N=Nc1c(C(N)=O)n[nH]c1C(C)C		inhibition		BACTEC	H37Rv	12.5 µg/mL	5%
CCCCCCCN1C(=O)c2cc(Cl)nnc2Oc2ccc(C)cc21		EC50		BACTEC	H37Rv		>12.5 µg/mL
O=C1NC(=S)N/C1=C/c1cccc(OCc2ccccc2)c1		inhibition			H37Rv	6.25 µg/mL	94%
O=C(/N=C/c1cccc([N+](=O)[O-])c1)NCCCN1c2ccccc2Sc2ccccc21		inhibition		agar	H37Rv	25 µg/mL	35%
CN1CCN(CNC(=O)c2cnccn2)CC1		MIC			ATCC 35828		300 µg/mL
CCOc1cc(C(=O)NCCN(CC)CC)nc2cc(C)ccc12		MIC bound		resazurin	H37Rv		>6.25 µg/mL
O=C(NN1CCN(c2cc3c(cc2F)c(=O)c(C(=O)O)cn3C2CC2)CC1)c1cccc([N+](=O)[O-])c1		MIC90		fluorescence	H37Rv		>50 µM
CCOC(=O)C1CN(Cc2ccccc2)C(COC)C1=O		MIC bound		resazurin	H37Rv		>6.25 µg/mL
Cc1c(C(=O)N2CCN(c3ccccc3)CC2)[n+](=O)c2cc(Cl)c(Cl)cc2n1[O-]		inhibition			H37Rv	6.25 µg/mL	0%
CC(=O)Nc1ccc(/C=N/NC(N)=S)cc1F		MBC			H37Rv		6.25 µg/mL
CCCN(CCC)CNC(=O)c1cnccn1		MIC			ATCC 35828		100 µg/mL
C=CCOc1cccc(/C=C2/NC(=S)NC2=O)c1		EC50			H37Rv		<6.25 µg/mL
CCN(CC)c1cc2nc(C3CCCCC3)[nH]c2cc1NC(=O)c1ccccc1		MIC99		resazurin	H37Rv		4.3 µM
O=C1NC(=S)N/C1=C/c1cccc(OCc2ccc(Cl)cc2Cl)c1		EC50			H37Rv		<6.25 µg/mL
O=C1CSC(c2ccccc2Br)N1C(=O)NCCCN1c2ccccc2Sc2ccccc21		inhibition		agar	H37Rv	50 µg/mL	75%
CCOc1c(N=Nc2ccc(Cl)cc2Cl)c(C)nn1C(=S)S		MIC			H37Rv		12.5 µg/mL
COc1ccc(/C=C2/NC(=S)NC2=O)c(OC)c1		inhibition			H37Rv	6.25 µg/mL	88%
CCCCCCN1C(=O)c2cc(Cl)nnc2Oc2cc(C)ccc21		inhibition		BACTEC	H37Rv	12.5 µg/mL	78%
COc1ccccc1N1CCN(C(=O)c2c(C)n([O-])c3cc(C)c(C)cc3[n+]2=O)CC1		MIC			H37Rv		>6.25 µg/mL
Cc1ccc(NC(=O)c2ccc(Cl)cc2)cc1Cl		MIC bound		BACTEC	H37Rv		≤12.5 µg/mL
Cc1c(C(=O)N2CCN(Cc3ccccc3)CC2)[n+](=O)c2cc(Cl)c(Cl)cc2n1[O-]		inhibition			H37Rv	6.25 µg/mL	0%
CC1=NN(c2ccc(S(=O)(=O)O)cc2)C(=O)C1N=Nc1ccc(-c2ccc(N=Nc3ccc(O)c(C(=O)O)c3)c(C)c2)cc1C		inhibition		BACTEC	H37Rv	12.8 µg/mL	-3%
CO[C@H]1/C=C/O[C@@]2(C)Oc3c(C)c(O)c4c(O)c(c(/C=N/N5CCN(C6CCCC6)CC5)c(O)c4c3C2=O)NC(=O)/C(C)=C\C=C\[C@H](C)[C@H](O)[C@@H](C)[C@@H](O)[C@@H](C)[C@H](OC(C)=O)[C@@H]1C		MIC			Isolate 900216 drug-susceptible		0.125 µg/mL
O=C(NCCCN1c2ccccc2Sc2ccccc21)N1C(=O)/C(=C\c2ccccc2O)SC1c1ccccc1O		inhibition		agar	H37Rv	25 µg/mL	25%
CCN(CC)CNC(=O)c1cnccn1		MIC			MS6210		100 µg/mL
Cc1ccccc1C1SCC(=O)N1C(=O)NCCCN1c2ccccc2Sc2ccccc21		inhibition		agar	H37Rv	50 µg/mL	45%
Cc1c(N)nc(C(CC(N)=O)NCC(N)C(N)=O)nc1C(=O)NC(C(=O)NC(C)C(O)CC(=O)NC(C(=O)NC(OC1OC(C)C(N)C(O)C1O)C(O)c1nc(-c2nc(C(=O)NCCC[S+](C)C)cs2)cs1)C(C)O)C(OC1OC(CO)C(O)C(O)C1OC1OC(CO)C(O)C(OC(N)=O)C1O)c1cnc[nH]1.Cl.Cl.Cl.[Cl-]		MIC			PAS-R		0.2 µg/mL
CCN(CC)CNC(=O)c1cnc(N(CC)CC)cn1		MIC			ATCC 27294		64 µg/mL
OC(c1cc(C2CCCCC2)nc2ccccc12)C1CCCCN1		inhibition		resazurin	H37Rv	6.25 µg/mL	25%
Cc1c(C(=O)Nc2ccccc2)[n+](=O)c2ccccc2n1[O-]		MIC	VERO		H37Rv		3.13 µg/mL
Cc1cnc(C(=O)NCN2CCOCC2)cn1		MIC			PZA-resistant		100 µg/mL